PubChem BioAssay AID624099 | ICCB-Longwood, 2012

Aim: 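Knock-downs relieving repression by E2 of an HPV18 LCR luciferase reporter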 (primary screen)
Cell system: human C33A cervical carcinoma cells (HPV-negative) stably expressing BPV1 E2 and an HPV18 LCR luciferase reporter
Knock-down reagent: siRNA pool against human genes, 40 nM
Timing: 72 h
Measured: 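Per-well luciferase luminescence, z-scored on each plate against the plate mean and SD with control wells left out, then averaged across three replicate plates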
Direction: mean z-score and z-score: higher = stronger reporter signal, weaker E2 silencing
Call rule: 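Mean z ≥ 2 together with z ≥ 2 in two or more of the three replicates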
The whole screen tested about 21,000 reagents; below is a part drawn at random. 497 of them (2.4%) were called active. 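Higher z means weaker E2 silencing; only reporter increases were scored, and knock-downs that hurt cell survival may mask genuine repressor factors.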 A number with no mark means an inactive call.

The first 2 records, ahead of the listing:
target | mean z-score | z-score, replicate A | z-score, replicate B | z-score, replicate C
LOC441165 (retired record) | -0.16 | 0.14 | -0.03 | -0.58
SMCR5 | 0.14 | 0.32 | -0.07 | 0.17

The list itself, from the start:
target | mean z-score | z-score, replicate A | z-score, replicate B | z-score, replicate C
LOC441165 (retired record) | -0.16 | 0.14 | -0.03 | -0.58
SMCR5 | 0.14 | 0.32 | -0.07 | 0.17
PPP1R42 | -0.17 | 0.49 | -0.83 | -0.17
PCMTD1 | -1.33 | -1.07 | -1.39 | -1.54
MYOG | -0.33 | -0.64 | -0.16 | -0.18
LOC102723968 | -0.78 | -0.75 | -0.64 | -0.94
POLR1F | -0.94 | -0.81 | -0.93 | -1.06
ZDHHC20 | -0.99 | -0.98 | -1.23 | -0.78
BMF | 2.41 (active) | 2.31 | 2.54 | 2.38
PECR | 1.15 | 0.6 | 0.85 | 2.01
TMPRSS2 | 0.3 | 0.05 | 0.52 | 0.33
ITPR3 | -1.28 | -1.55 | -1.33 | -0.95
PEG3 | -0.12 | -0.12 | -0.03 | -0.22
CCT8L2 | -0.7 | -0.11 | -0.75 | -1.24
KIR3DX1 | 0.38 | 0.5 | 0.15 | 0.5
DNAJB14 | 0.86 | 0.83 | 1.28 | 0.48
ZNF66 | 0.91 | 1.22 | 0.63 | 0.89
EMP2P1 | -0.55 | -0.62 | -0.18 | -0.85
SLC17A5 | -0.12 | 0.03 | -0.42 | 0.02
CSNK1G1 | -0.27 | 0.08 | -0.62 | -0.26
ARSD | 0.19 | 0.86 | -0.34 | 0.03
LYRM4 | 1.28 | 1.44 | 1.44 | 0.97
ZNF182 | 1.06 | 0.93 | 1.23 | 1.02
